Measurements taken from patent US20240000885A1 (priority 2020, published 2024).

Protein sequences, listed by entry. Tags and fused reporters are not part of them. Lines headed by an entry give the natural chain unless they say otherwise; changes in a name come on top. Residues count along the entry.
UniProt Q9ULV0, 902-1848 limits assumed: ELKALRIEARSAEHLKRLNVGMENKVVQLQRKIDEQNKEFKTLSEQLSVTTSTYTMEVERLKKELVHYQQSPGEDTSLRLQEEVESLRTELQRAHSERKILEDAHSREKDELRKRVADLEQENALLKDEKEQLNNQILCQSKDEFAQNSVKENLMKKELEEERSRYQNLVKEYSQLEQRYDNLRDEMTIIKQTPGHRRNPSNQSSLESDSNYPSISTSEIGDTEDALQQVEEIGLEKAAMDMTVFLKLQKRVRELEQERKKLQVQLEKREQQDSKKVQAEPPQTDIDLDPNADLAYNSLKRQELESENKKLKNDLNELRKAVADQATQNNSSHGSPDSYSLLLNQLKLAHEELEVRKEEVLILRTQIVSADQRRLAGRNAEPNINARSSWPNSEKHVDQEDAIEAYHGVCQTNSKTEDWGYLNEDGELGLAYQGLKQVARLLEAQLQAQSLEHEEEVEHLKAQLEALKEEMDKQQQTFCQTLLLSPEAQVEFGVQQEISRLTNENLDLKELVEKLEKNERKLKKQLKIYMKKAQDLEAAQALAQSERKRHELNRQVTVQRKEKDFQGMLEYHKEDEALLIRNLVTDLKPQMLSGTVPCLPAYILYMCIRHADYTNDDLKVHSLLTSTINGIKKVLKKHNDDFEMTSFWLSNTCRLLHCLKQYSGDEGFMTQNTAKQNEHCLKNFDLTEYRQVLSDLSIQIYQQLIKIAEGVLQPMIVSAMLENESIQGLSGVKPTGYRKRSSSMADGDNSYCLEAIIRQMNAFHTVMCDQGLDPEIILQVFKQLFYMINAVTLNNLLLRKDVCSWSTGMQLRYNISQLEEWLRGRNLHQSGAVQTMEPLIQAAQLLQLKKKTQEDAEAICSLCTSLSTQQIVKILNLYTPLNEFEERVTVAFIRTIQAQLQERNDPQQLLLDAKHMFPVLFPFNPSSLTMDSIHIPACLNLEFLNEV

Columns and labels:
[1] = biological target: SARS CoV2 M-GFP and mCherry-MYO5B+D 902 Tail in MDCK cells (UniProt P0DTC5+Q9ULV0, G89R/L57V); details: for effect on the co-localization of SARS CoV2 with MYO5B+D: 1 μM
[2] = biological target: SARS CoV2 M-GFP and mCherry-MYO5B+D 902 Tail in A549 cells (UniProt P0DTC5+Q9ULV0, G89R/L57V); details: for effect on the co-localization of SARS CoV2 with MYO5B+D: 1 μM
[3] = 10 pM to 1 pM (so in the source), 24 hours

SMILES: CNC(=C[N+](=O)[O-])NCCSCc1csc(CN(C)C)n1 [Nizatidine]
- lowest concentration causing loss of localization between SARS CoV2 M and MYO5B+D [1, 3]: 10 pM
- effect on colocalization of SARS CoV2 M-GFP with 902 Tail ([1]; FIG. 21A, 24 hours): disrupts the colocalization
- lowest concentration causing loss of localization between SARS CoV2 M and MYO5B+D [2, 3]: 10 pM
- effect on colocalization of SARS CoV2 M-GFP with 902 Tail ([2]; FIG. 21B, 24 hours): disrupts the colocalization

SMILES: CN/C(=N/CCSCc1nc[nH]c1C)NC#N [Cimetidine]
- effect on the co-localization of SARS CoV2 with MYO5B+D [1]: no effect
- effect on the co-localization of SARS CoV2 with MYO5B+D [2]: no effect

SMILES: NC(N)=Nc1nc(CSCCC(N)=NS(N)(=O)=O)cs1 [Famotidine]
- effect on the co-localization of SARS CoV2 with MYO5B+D [1]: no effect
- effect on the co-localization of SARS CoV2 with MYO5B+D [2]: no effect
